Pooled drug test results. Numbers come from NIAID ChemDB, via PubChem.

All rows: target-level tests; agent: HIV-1; protein: Reverse transcriptase; read-out: IC50

An empty or dashed field is not shown.

SMILES,changes,method,strain or isolate,result
C#Cc1ccc(Nc2nccc(Oc3c(C)cc(-c4cn(CC(=O)Nc5ccc(S(C)(=O)=O)cc5)nn4)cc3C)n2)cc1,,RT activity / ELISA,,0.29 µM
CCc1c([Se]c2ccccc2)n(COCc2ccccc2)c(=O)[nH]c1=O,RT-L100I,RT activity,,0.4 µM
Cc1cc2c(C(C)C)c(O)c(O)c(C=O)c2c(O)c1-c1c(C)cc2c(C(C)C)c(O)c(O)c(C=O)c2c1O,,HPLC,LAV,4.6 µM
Cc1cc(S(N)(=O)=O)ccc1NC(=O)COc1ccc(Cl)cc1C(=O)c1cc(Cl)cc(C#N)c1,RT-K103N,fluorescence,,0.0019 µM
COc1ccc2c(c1)N(C(=O)OC(C)C)[C@@H](CSC)C(=S)N2,RT-E138K,scintillation proximity / radiometric,,0.22 µM
Cc1ccc(C(=O)N2CCN(C(=O)c3cc(O)c(O)c(O)c3)CC2)cc1,,ELISA / nucleotide incorporation,BH10,>50 µM
O=C1CSC(c2ccnc3ccccc23)N1Cc1ccco1,,ELISA,,>10 µg/mL
C#Cc1ccc(Nc2nccc(Oc3c(C)cc(-c4cn(CCc5ccccc5)nn4)cc3C)n2)cc1,,RT activity / ELISA,,0.62 µM
O=C1CSC(c2ccnc3ccccc23)N1c1ccccn1,,ELISA,,>10 µg/mL
Cc1cc(C)c(S(=O)(=O)N2CCN(C(=O)c3cc(O)c(O)c(O)c3)CC2)c(C)c1,,ELISA / nucleotide incorporation,BH10,>50 µM
Cc1cc2c(C(C)C)c(O)c(O)c(/C=N/O)c2c(O)c1-c1c(C)cc2c(C(C)C)c(O)c(O)c(/C=N/O)c2c1O,,HPLC,LAV,3.2 µM
O=C(/C=C/c1ncc(-c2ccccc2)cn1)Nc1cc(-c2ccc3c(c2)CCCC3)[nH]n1,WT,RT activity / nucleotide incorporation / luminescence,NL4-3,0.21 µM
c1ccc(C2SCc3nc4ccccc4n32)cc1,RT-V179D,,,~50 µM
Nc1ncnc2c1ncn2[C@H]1CC[C@@H](COP(=O)(O)OP(=O)(O)OP(=O)(O)O)O1,RT-T215Y K219Q,ELISA,,8.4 µM
C#Cc1ccc(Nc2nccc(Oc3c(C)cc(-c4cn(Cc5cccc(C(=O)OC)c5)nn4)cc3C)n2)cc1,,RT activity / ELISA,,0.22 µM
Nc1ccn([C@H]2CC[C@@H](COP(=O)(O)OP(=O)(O)OP(=O)(O)O)O2)c(=O)n1,RT-L74V T215Y K219Q,ELISA,,16.2 µM
Nc1ccc(C(=O)N2CCC(NC(=O)c3cc(O)c(O)c(O)c3)CC2)cc1,,ELISA / nucleotide incorporation,BH10,>323.1 µM
O=C(/C=C/c1ncccn1)Nc1cc(-c2ccc3c(c2)CCCC3)[nH]n1,K103N,RT activity / nucleotide incorporation / luminescence,NL4-3,0.22 µM
O=C(c1ccccc1)N1CCN(C(=O)c2cc(O)c(O)c(O)c2)CC1,,ELISA / nucleotide incorporation,BH10,>50 µM
N#Cc1ccc(NC(=S)N[C@@H]2[C@@H]3COc4c(F)ccc(F)c4[C@@H]32)nc1,Wild type,scintillation proximity / radiometric,,0.0057 µM
CC(=O)Oc1c(-c2c(C)cc3c(C(C)C)c(O)c(O)c(C#N)c3c2OC(C)=O)c(C)cc2c(C(C)C)c(O)c(O)c(C#N)c12,,HPLC,LAV,>100 µM
C#Cc1ccc(Nc2nccc(Oc3c(C)cc(-c4cn(Cc5cccc([N+](=O)[O-])c5)nn4)cc3C)n2)cc1,,RT activity / ELISA,,0.24 µM
CC(=O)Nc1nc(C)c(S(=O)(=O)N2CCC(NC(=O)c3cc(O)c(O)c(O)c3)CC2)s1,,ELISA / nucleotide incorporation,BH10,>237.8 µM
CC(C)=CCOc1cc(NC(=S)c2ccoc2C)ccc1Cl,RT-V106A,,,3.2 µM
COc1cc(OC)c(C2SCC(=O)N2c2cccc(C)n2)c(OC)c1,,ELISA,,~10 µg/mL
CCc1c(Sc2ccccn2)n(COCc2ccccc2)c(=O)[nH]c1=O,RT-T181C,RT activity,,5.3 µM
Cc1cc2c(C(C)C)c(O)c(O)c(C=NCCO)c2c(O)c1-c1c(C)cc2c(C(C)C)c(O)c(O)c(C=NCCO)c2c1O,,HPLC,LAV,1.2 µM
O=C(Nc1nnc(-c2ccc3c(c2)CCCC3)o1)C1=COCCO1,WT,RT activity / nucleotide incorporation / luminescence,NL4-3,8.5 µM
CCOC(=O)CC(=O)N1CCC(NC(=O)c2cc(O)c(O)c(O)c2)CC1,,ELISA / nucleotide incorporation,BH10,>327.5 µM
C#Cc1ccc(Nc2nccc(Oc3c(C)cc(-c4cn(Cc5ccc(C(N)=O)cc5)nn4)cc3C)n2)cc1,,RT activity / ELISA,,0.06 µM
CCOc1ccc(N2CC(O)Cn3c2nc2c3c(=O)n(CC(N)=O)c(=O)n2C)cc1,,RT activity / RNase H / absorbance,,>100 µM
O=C(/C=C/c1ncc(-c2cccnc2)cn1)Nc1cc(-c2ccc3c(c2)CCCC3)[nH]n1,WT,RT activity / nucleotide incorporation / luminescence,NL4-3,0.2 µM
CCc1c(Sc2ccccc2)n(COCc2ccccc2)c(=O)[nH]c1=O,,RT activity,RT-WT,0.1 µM
Cc1ccc(CN2C(=O)CSC2c2c(F)cccc2F)o1,,ELISA,,>10 µg/mL
O=C(O)C(=NNc1ccc(Cl)cc1)C(=O)O,WT,RT activity / nucleotide incorporation / luminescence,NL4-3,1.4 µM

The first 4 rows once more:

SMILES,changes,method,strain or isolate,result
C#Cc1ccc(Nc2nccc(Oc3c(C)cc(-c4cn(CC(=O)Nc5ccc(S(C)(=O)=O)cc5)nn4)cc3C)n2)cc1,,RT activity / ELISA,,0.29 µM
CCc1c([Se]c2ccccc2)n(COCc2ccccc2)c(=O)[nH]c1=O,RT-L100I,RT activity,,0.4 µM
Cc1cc2c(C(C)C)c(O)c(O)c(C=O)c2c(O)c1-c1c(C)cc2c(C(C)C)c(O)c(O)c(C=O)c2c1O,,HPLC,LAV,4.6 µM
Cc1cc(S(N)(=O)=O)ccc1NC(=O)COc1ccc(Cl)cc1C(=O)c1cc(Cl)cc(C#N)c1,RT-K103N,fluorescence,,0.0019 µM

Rows are shuffled and stem from different studies. ICn is the concentration giving n% inhibition.